From ChEMBL document CHEMBL3596151, “Elucidation of the in vitro and in vivo activities of bridged 1,2,4-trioxolanes, bridged 1,2,4,5-tetraoxanes, tricyclic monoperoxides, silyl peroxides, and hydroxylamine derivatives against Schistosoma mansoni” (Bioorg Med Chem, 2015)

Legend:
Schistosoma mansoni [1] = assay: Antischistosomal activity against adult Schistosoma mansoni assessed as decrease in viability after 72 hrs by microscopic analysis
Schistosoma mansoni [2] = assay: Antischistosomal activity against newly transformed Schistosoma mansoni cercariae assessed as decrease in viability after 72 hrs by microscopic analysis

Structure (SMILES)	IC50 (Schistosoma mansoni [1])	IC50 (Schistosoma mansoni [2])
CC[C@]12C[C@](CC(C)C)(OO1)OO2	20.9 µM	4.7 µM
CC(C)C[C@]12OO[C@](C)(OO1)C2C (some centres not stated)	20.8 µM	–
CC(=O)CCC1(Cc2ccc([N+](=O)[O-])cc2)[C@]2(C)OO[C@@]1(C)OO2 (some centres not stated)	23.6 µM	–
CC(C)C[C@]12C[C@](C)(OO1)OO2	7.4 µM	3.7 µM
CC(C)(C)[C@]12C[C@](C(C)(C)C)(OO1)OO2	12.1 µM	–
